# According to ChEMBL document CHEMBL5131566, “Small-Molecule Thioesters as SARS-CoV-2 Main Protease Inhibitors: Enzyme Inhibition, Structure-Activity Relationships, Antiviral Activity, and X-ray Structure Determination” (J Med Chem, 2022):
# Target: Replicase polyprotein 1ab (Severe acute respiratory syndrome coronavirus 2) (UniProt P0DTD1)
# Assay: Time dependent inhibition of recombinant his tagged SARS CoV-2 main protease expressed in Escherichia coli BL21 assessed as ratio of Kinact/Ki using MCA-AVLQSGFR-K(DNP)-K-NH2 as substrate pre-incubated for 5 mins followed by substrate addition measured after 60 mins by FRET based assay
row,SMILES,Ratio
1,Cc1ccnc(SC(=O)c2cc3ccccc3[nH]2)n1,27200 M⁻¹ s⁻¹
2,Cc1nnc(SC(=O)c2ccc3ccccc3c2)s1,6960 M⁻¹ s⁻¹
3,O=C(Sc1ncccn1)c1cc2ccccc2[nH]1,58700 M⁻¹ s⁻¹
4,Cc1nnc(SC(=O)c2cc3ccccc3n2C)s1,7170 M⁻¹ s⁻¹
5,COc1nnc(SC(=O)c2cc3ccccc3[nH]2)s1,7870 M⁻¹ s⁻¹
6,O=C(Sc1nc2ccccc2s1)c1cc2ccccc2[nH]1,14200 M⁻¹ s⁻¹
7,Cc1nnc(SC(=O)c2cccc3cc[nH]c23)s1,3690 M⁻¹ s⁻¹
8,O=C(Sc1nncs1)c1cc2ccccc2[nH]1,10700 M⁻¹ s⁻¹
